Anti-infective test results gathered from many reports (values: NIAID ChemDB through PubChem).

Common to all: growth or infection tests; species: Aspergillus flavus; read-out: MIC

An empty or dashed field is not shown. Conditions beyond the fields shown may differ between rows. a–b is a range or a potency band.

structure,read by,strain or isolate,value
C[C@H]1[C@H](O)[C@@H](C)/C=C/C=C/C=C/C=C/C=C/C=C/C=C/[C@H](O[C@@H]2O[C@H](C)[C@@H](O)[C@H](N)[C@@H]2O)C[C@@H]2O[C@](O)(C[C@@H](O)C[C@@H](O)CC[C@H](O)[C@@H](O)C[C@@H](O)CC(=O)O[C@H]1C)C[C@H](O)[C@H]2C(=O)O,broth dilution,-,>17.4 µM
O=C/C=C/c1ccccc1,broth dilution,NRRL 501,80 µg/mL
COc1cccc(C=O)c1O,agar,NRRL3357,1000 µM
O=C1c2cc(CO)cc(O)c2C(=O)c2cc(O)cc(O)c21,broth dilution,-,31.25 µg/mL
CCCCCOc1ccc(-c2ccc(-c3ccc(C(=O)N[C@H]4C[C@@H](O)[C@@H](O)NC(=O)[C@@H]5[C@@H](O)[C@@H](C)CN5C(=O)[C@H]([C@H](C)O)NC(=O)[C@H]([C@H](O)[C@@H](O)c5ccc(O)cc5)NC(=O)[C@@H]5C[C@@H](O)CN5C(=O)[C@H]([C@H](C)O)NC4=O)cc3)cc2)cc1,-,-,0.015–8 µg/mL
COc1ccc(Cn2nc(C3CC3)cc2NC(=O)c2ccc(Cl)cc2Cl)cc1,-,-,23 µg/mL
C[C@@H]1[C@H](O)[C@@H](C)/C=C/C=C/CC/C=C/C=C/C=C/C=C/C(O[C@H]2O[C@H](C)[C@@H](O)[C@H](N)[C@@H]2O)CC2O[C@](O)(CC(O)C(O)CCC(O)CC(O)CC(O)CC(=O)O[C@H]1C)CC(O)C2C(=O)O,-,-,8 µM
FC(F)(F)c1cccc([Se][Se]c2cccc(C(F)(F)F)c2)c1,broth dilution,-,>64 µg/mL
COc1ccc(O)c(C=O)c1,agar,NRRL3357,500 µM
COc1ccc(Cn2nc(C3CC3)cc2NC(=O)c2cccc(C(C)(C)C)c2)cc1,-,-,41 µg/mL
O=C1C(=O)c2ccccc2-c2ccccc21,visual reading,-,40 µg/mL
CC1(C)c2nn[se]c2C(c2ccc(Cl)cc2)NC1c1ccc(Cl)cc1,agar diffusion,-,25 µg/mL
CCCCCOc1ccc(-c2cc(-c3ccc(C(=O)N[C@H]4C[C@@H](O)[C@@H](O)NC(=O)[C@@H]5[C@@H](O)[C@@H](C)CN5C(=O)[C@H]([C@H](O)CC(N)=O)NC(=O)[C@H]([C@H](O)[C@@H](O)c5ccc(O)c(OS(=O)(=O)O)c5)NC(=O)[C@@H]5C[C@@H](O)CN5C(=O)[C@H]([C@@H](C)O)NC4=O)cc3)no2)cc1,-,-,0.015–8 µg/mL
CC(C)=CCC/C(C)=C/CO,broth dilution,NRRL 501,144 µg/mL
C[C@@H]1[C@H](O)[C@@H](C)/C=C/C=C/CC/C=C/C=C/C=C/C=C/[C@H](O[C@@H]2O[C@H](C)[C@@H](O)[C@H](N)[C@@H]2O)C[C@@H]2O[C@](O)(C[C@@H](O)[C@H](O)CC[C@@H](O)C[C@@H](O)C[C@@H](O)CC(=O)O[C@H]1C)C[C@H](O)[C@H]2C(=O)O,-,-,0.75 µg/mL
COc1cc2oc(=O)ccc2cc1CC(O)C(C)(C)O,-,-,15.6 µg/mL
C[C@H]1[C@H](O)[C@@H](C)/C=C/C=C/C=C/C=C/C=C/C=C/C=C/[C@H](O[C@@H]2O[C@H](C)[C@@H](O)[C@H](N)[C@@H]2O)C[C@@H]2O[C@](O)(C[C@@H](O)C[C@@H](O)CC[C@H](O)[C@@H](O)C[C@@H](O)CC(=O)O[C@H]1C)C[C@H](O)[C@H]2C(=O)O,broth dilution,VPCI 190/96,1.95 µg/mL
COc1cc(O)c2c(=O)c(OC)c(-c3ccc(OC4O[C@H](CO)[C@@H](O)[C@H](O)[C@H]4O)cc3)oc2c1,-,-,320 µg/mL
[Al]#[P],agar,-,3.5 µg/mL
CC(C)=CCOc1ccc2c(c1C)C(=O)c1ccccc1C2=O,broth dilution,Standard strain,62.5 µg/mL
CCC(C)CC(C)CCCCCCCCC(=O)N[C@H]1C[C@@H](O)[C@H](NCCN)NC(=O)[C@@H]2[C@@H](O)CCN2C(=O)[C@H]([C@H](O)CCN)NC(=O)[C@H]([C@H](O)[C@@H](O)c2ccc(O)cc2)NC(=O)[C@@H]2C[C@@H](O)CN2C(=O)[C@H]([C@@H](C)O)NC1=O,-,-,0.015–8 µg/mL
CCC(C)n1ncn(-c2ccc(N3CCN(c4ccc(OC[C@H]5CO[C@](Cn6cncn6)(c6ccc(Cl)cc6Cl)O5)cc4)CC3)cc2)c1=O,agar diffusion,-,8 µg/mL
c1ccc([Se][Se]c2ccccc2)cc1,broth dilution,-,16–64 µg/mL
C[C@@H]1[C@H](O)[C@@H](C)/C=C/C=C/CC/C=C/C=C/C=C/C=C/C(O[C@H]2O[C@H](C)[C@@H](O)[C@H](N)[C@@H]2O)CC2O[C@](O)(CC(O)C(O)CCC(O)CC(O)CC(O)CC(=O)O[C@H]1C)CC(O)C2C(=O)O,-,-,37 µg/mL
C[C@H]1[C@H](O)[C@@H](C)/C=C/C=C/C=C/C=C/C=C/C=C/C=C/[C@H](O[C@@H]2O[C@H](C)[C@@H](O)[C@H](N)[C@@H]2O)C[C@@H]2O[C@](O)(C[C@@H](O)C[C@@H](O)CC[C@H](O)[C@@H](O)C[C@@H](O)CC(=O)O[C@H]1C)C[C@H](O)[C@H]2C(=O)O,-,-,0.5–16 µg/mL
Cc1ccc(NC(=O)CN(C)CC(O)Cn2c(=O)c3ccccc3n(C)c2=O)cc1,agar diffusion,-,16 µg/mL
COc1ccc(Cn2nc(C3CC3)cc2NC(=O)c2cccc(OC)c2)cc1,-,-,50 µg/mL

Again, the opening 3 rows:

structure,read by,strain or isolate,value
C[C@H]1[C@H](O)[C@@H](C)/C=C/C=C/C=C/C=C/C=C/C=C/C=C/[C@H](O[C@@H]2O[C@H](C)[C@@H](O)[C@H](N)[C@@H]2O)C[C@@H]2O[C@](O)(C[C@@H](O)C[C@@H](O)CC[C@H](O)[C@@H](O)C[C@@H](O)CC(=O)O[C@H]1C)C[C@H](O)[C@H]2C(=O)O,broth dilution,-,>17.4 µM
O=C/C=C/c1ccccc1,broth dilution,NRRL 501,80 µg/mL
COc1cccc(C=O)c1O,agar,NRRL3357,1000 µM